Source: US12344637B2, “Virus-inspired compositions and methods of redirecting preexisting immune responses using the same for treatment of cancer” (priority 2020, dated 2025)

Assay: Percent peptide conjugation by SDS-PAGE densitometry
Settings: 10:1 TCEP:L1, 10:1 peptide:L1

| Molecule | percent conjugation (densitometry) | percent conjugation (densitometry) (listed as WT HPV16 T=7 capsid backbone) | percent conjugation (densitometry) (listed as MPV.10.34.d) | percent conjugation (densitometry) (listed as MPV.10.34.d capsid backbones) |
| --- | --- | --- | --- | --- |
| HPV16: wild type HPV16 L1 T=7 capsid backbone [reference compound] | approximately 20% | at least 20% |  |  |
| MPV.10.34.d capsid backbone (protein) MLYLPPTTPVAKVQSTDEYVYPTSLFCHAHTDRLLTVGHPFFSVIDNDKVTVPKVSGNQYRVFRLKFPDPNKFALPQKDFYDPEKERLVWRLRGLEIGRGGPLGIGTTGHPLFNKLGDTENPNKYQQGSKDNRQNTSMDPKQTQLFIVGCEPPTGEHWDVAKPCGALEKGDCPPIQLVNSVIEDGDMCDIGFGNMNFKELQQDRSGVPLDIVSTRCKWPDFLKMTNEAYGDKMFFFGRREQVYARHFFTRNGSVGEPIPNSVSPSDFYYAPDSTQDQKTLAPSVYFGTPSGSLVSSDGQLFNRPFWLQRAQGNNNGVCWHNELFVTVVDNTRNTNFTISQQTNTPNPDTYDSTNFKNYLRHVEQFELSLIAQLCKVPLDPGVLAHINTMNPTILENWNLGFVPPKEREDPYKGLIFWEVDLTERFSQDLDQFALGRKFLYQ | at least 50% |  | about 50% | 50% |
